Measurements from the supplement of paper PMC3578754.
Fold change is the IC50 on the isolate divided by the IC50 on a reference virus; 1 = unchanged, higher = more resistant. Changes are given against the subtype B consensus. No active / inactive call. The values were gathered from many studies (numbered anew) with different assays, which the source does not name. Most viruses are clinical isolates; some are laboratory strains or clones with known resistance changes. Isolates with mixed residues are left out; stretches that were not sequenced show no change. Round top values that many isolates share are read here as limits; other very high values and 0.1 may be limits too.

Tests used:
Assay in all cases: fold change of IC50 against reference virus; higher = more resistant
delavirdine = compound: CC(C)Nc1cccnc1N1CCN(C(=O)c2cc3cc(NS(C)(=O)=O)ccc3[nH]2)CC1 [delavirdine]
Method: (§1)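 Cell-culture drug susceptibility tests of virus bearing the reverse transcriptase of each isolate, gathered from many studies.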

nevirapine = compound: Cc1ccnc2c1NC(=O)c1cccnc1N2C1CC1 [nevirapine]
Method: as §1

stavudine = compound: Cc1cn([C@H]2C=C[C@@H](CO)O2)c(=O)[nH]c1=O [stavudine]
Method: as §1

zidovudine = compound: Cc1cn([C@H]2C[C@H](N=[N+]=[N-])[C@@H](CO)O2)c(=O)[nH]c1=O [zidovudine]
Method: as §1

zalcitabine = compound: Nc1ccn([C@H]2CC[C@@H](CO)O2)c(=O)n1 [zalcitabine]
Method: as §1

abacavir = compound: Nc1nc(NC2CC2)c2ncn([C@H]3C=C[C@@H](CO)C3)c2n1 [abacavir]
Method: as §1

efavirenz = compound: O=C1Nc2ccc(Cl)cc2[C@@](C#CC2CC2)(C(F)(F)F)O1 [efavirenz]
Method: as §1

didanosine = compound: O=c1[nH]cnc2c1ncn2[C@H]1CC[C@@H](CO)O1 [didanosine]
Method: as §1

Test System | fold change of IC50 against reference virus (delavirdine) | fold change of IC50 against reference virus (nevirapine) | fold change of IC50 against reference virus (stavudine) | fold change of IC50 against reference virus (zidovudine) | fold change of IC50 against reference virus (zalcitabine) | fold change of IC50 against reference virus (abacavir) | fold change of IC50 against reference virus (efavirenz) | fold change of IC50 against reference virus (didanosine)
HIV-1 isolate 30 (reverse transcriptase changes: D121H K122E S162C D177E M184V R211K, study 28) | 0.8 | 0.4 | 0.7 | 0.4 | 2.1 | 3.6 | 0.5 | 1.4
HIV-1 isolate 42 (reverse transcriptase changes: R83K R211S A272P K281R E297K S322L A376T V381I A400T, study 54) | 0.9 | 1.1 | 0.8 | 0.7 | 1 | 0.9 | 0.8 | 0.8
HIV-1 isolate 60 (reverse transcriptase changes: M41L E44D D67N L74V A98G V118I K122E D123N E169D G190E E203K Q207E H208Y L210W R211K T215Y K219N K223E, study 40) | 47 | 135 | 5 | 216 | 2 | 10 | 77 | 7
HIV-1 isolate 81 (reverse transcriptase changes: K20R W24G L26W V35M M41L R83K K122E D123E M184V T200I T215Y, study 40) | 1 | 1 | 1 | 4 | 1 | 4 | 1 | 3
HIV-1 isolate 84 (reverse transcriptase changes: K103N V108I I135T I178L M184V T200A T215Y A272P, study 15) | 42 | 230 | 1.5 | 2.7 | 2.1 | 5.7 | 87 | 1.8
HIV-1 isolate 112 (reverse transcriptase changes: T39A M41L K43A E44D D67N T69D V118I K122E I142V M184V Q207E L210W R211K T215Y I293V E297A, study 112) | 0.3 | 0.5 | 3.3 | 35.4 | 3.1 | 9.6 | 0.3 | 2.1
HIV-1 isolate 120 (reverse transcriptase changes: V60I I142V M184V Q207H R211K, study 28) | 1.1 | 0.8 | 0.9 | 0.6 | 1.9 | 4 | 0.8 | 1.4
HIV-1 isolate 131 (reverse transcriptase changes: M41L P176S M184V T200A R211K T215Y, study 28) | 0.7 | 0.9 | 1.5 | 6.2 | 2 | 6.8 | 0.7 | 1.6
HIV-1 isolate 136 (reverse transcriptase changes: V60I D121Y K122E D177E I178V I202V V245E A272P K277R I293V P294S, study 40) | 3 | 1 | 1 | 1 | 1 | 1 | 2 | 1
HIV-1 isolate 142 (reverse transcriptase changes: M41L S68G M184V Q207E T215Y, study 28) | 0.3 | 0.5 | 1.3 | 2.4 | 1.6 | 4.7 | 0.3 | 1.4
HIV-1 isolate 153 (reverse transcriptase changes: K64R K122P I135T I159V D177E I202V L210W R211K I293V Q334E R356K M357S S379G K390R, study 54) | 1 | 1 | 1.2 | 1.1 | 1.3 | 0.8 | 1.1 | 1.2
HIV-1 isolate 171 (reverse transcriptase changes: M41L D67N K70R K102Q S162C M184V T215Y K219Q K277R, study 110) | 0.4 | 0.3 | 1.4 | 4.8 | 1.8 | 3.4 | 0.3 | 1.4
HIV-1 isolate 198 (reverse transcriptase changes: V35L M41L A98G K103N K104N V118I K122E I142L A158P Y188L I202V L210W R211K T215Y V245M, study 40) | 201 | 396 | 1 | 125 | 2 | 3 | 63 | 7
HIV-1 isolate 239 (reverse transcriptase changes: P4S T39A A62V K65R D67N S68R T69N V75I F77L K103N V108I F116Y K122E Q151M K173T D177E I178L Y181S M184V Q207E R211K K219E S251R W252K T253G, study 40) | 35 | 100 | 33 | 1000 | 36 | 17 | 40 | 60
HIV-1 isolate 250 (reverse transcriptase changes: V35R I142V K173Q V245T, study 40) | 8 | 3 | 2 | 22 | 1 | 1 | 1 | 1
HIV-1 isolate 292 (reverse transcriptase changes: V35I I50F R83K D123E I135T A272P, study 40) | 1 | 1 | 1 | 1 | 1 | 1 | 1 | 1

Test System | fold change of IC50 against reference virus (delavirdine) | fold change of IC50 against reference virus (nevirapine) | fold change of IC50 against reference virus (stavudine) | fold change of IC50 against reference virus (zidovudine) | fold change of IC50 against reference virus (zalcitabine) | fold change of IC50 against reference virus (abacavir) | fold change of IC50 against reference virus (efavirenz) | fold change of IC50 against reference virus (didanosine)
HIV-1 isolate 321 (reverse transcriptase changes: T39A D67N R83K D123E D177E G196E I202V Q207K R211A T215L K219Q K277R I293V Q334L K390R A400S, study 54) | 0.5 | 0.3 | 1.2 | 1.2 | 1 | 0.7 | 0.4 | 1.1
HIV-1 isolate 324 (reverse transcriptase changes: K22R L74V K102Q K103N I135L M184V Y188L T200A R211E V241A, study 40) | 208 | 167 | 1 | 1 | 2 | 11 | 186 | 7
HIV-1 isolate 329 (reverse transcriptase changes: V35M T39A K70R D123E A158S I178L V179I V245E, study 40) | 17 | 8 | 1 | 9 | 2 | 1 | 4 | 2
HIV-1 isolate 340 (reverse transcriptase changes: R83K K173R G196E R211S P294Q E297K K311R, study 40) | 1 | 2 | 2 | 1 | 1 | 1 | 1 | 2
HIV-1 isolate 360 (reverse transcriptase changes: M41L D67N K70R V118I K122E I135T S162D D177E M184V T200E E203D F214L T215F K219Q V245K E297A, study 116) | 0.2 | 0.4 | 1.8 | 23 | 2.1 | 4.6 | 0.3 | 1.5
HIV-1 isolate 392 (reverse transcriptase changes: V35T T39L I50V V60I D67N K70R K122E D123S I135T K173S Q174K D177E V179I T200K Q207A R211S F214L K219Q V245Q T286A E291D, study 116) | 0.3 | 0.2 | 1.6 | 10 | 1 | 1.2 | 0.2 | 0.9
HIV-1 isolate 407 (reverse transcriptase changes: M41L V60I D67N K70R V75M K101E D123E M184V G190S G196E Q207H T215F K219E A272P Q278H E297K, study 109) | 0.2 | 513 | 2 | 33 | 2.3 | 6.1 | 302 | 1.7
HIV-1 isolate 410 (reverse transcriptase changes: R83K D123E V245M D250E A272P I293V V317A M357T A376T E399D A400T, study 54) | 1.9 | 1.1 | 1 | 1.1 | 1 | 1 | 0.8 | 1
HIV-1 isolate 441 (reverse transcriptase changes: K70R I135T M184V R211K F214L, study 28) | 0.4 | 0.4 | 0.7 | 0.5 | 2.5 | 4.3 | 0.4 | 1.4
HIV-1 isolate 450 (reverse transcriptase changes: T39A M41L E44D D67N T69D R83K K103N V118I K122E I135T E169D M184V T200E E203K Q207E H208Y L210W R211K T215Y A272P V276T, study 109) | 6.8 | 44 | 4.6 | 181 | 2.9 | 9.5 | 13 | 2.1
HIV-1 isolate 454 (reverse transcriptase changes: M41L D67N K70R K102Q S162C T215Y K219Q K277R, study 110) | 0.5 | 0.5 | 1.9 | 54.6 | 0.8 | 2.8 | 0.4 | 0.9
HIV-1 isolate 520 (reverse transcriptase changes: K20R D67G S68G K70R R211S T215F K219Q K281R E297K, study 109) | 0.5 | 0.3 | 1.3 | 31 | 1.3 | 1.8 | 0.3 | 1.1
HIV-1 isolate 523 (reverse transcriptase changes: A98S I135T T200A R211K V245M E248D K277R I293V E297A K311R D324G I329L A376S K390R, study 54) | 3.8 | 3.5 | 1.2 | 1.7 | 1.1 | 0.8 | 1.8 | 1.1
HIV-1 isolate 534 (reverse transcriptase changes: M41L K102Q S162C T215Y K277R, study 110) | 0.3 | 1 | 1.5 | 11.2 | 1 | 2.6 | 0.5 | 0.9
HIV-1 isolate 1294 (reverse transcriptase changes: M41L V60I I135V S162C G196E T215Y T286A I293V E297K S322A D324E F346Y M357T R358K G359S K366R A400T, study 54) | 0.1 | 0.1 | 2.1 |  | 1.2 | 1.7 | 0.2 | 1.2
